Values after ≈ are worked out from the molar mass of the structure shown.
Key:
[1] = tested on: Corynebacterium paratuberculosis; test: Anti-bacterial activity in vivo, infected mice
Fusarium graminearum = test: Development of resistance, 12 weeks sub-inhibitory exposure

**Q.** What does the source list for C/C(=C\c1ccc2c(c1)OCO2)[N+](=O)[O-] [Compound (1)]?
**A.** therapeutic and prophylactic activity [1]: showed therapeutic and prophylactic activity; MIC Final (Fusarium graminearum; Table 20, M38-P, after 12 weeks continuous exposure): 4 µg/mL (≈ 19.3 µM); MIC Initial (Fusarium graminearum; Table 20, M38-P, parent strain): 4 µg/mL (≈ 19.3 µM); Standard MIC Initial (Fusarium graminearum; before exposure, MHB): 4 µg/mL; 7-Day MIC Range (Fusarium graminearum; to Wk 5): 4-16 to Wk 5 μg/mL
